Experimental data as given in paper PMC11320570 (ACS Infectious Diseases, 2024).

Experiments:
[1] = biological target: soluble E80 protein of DENV-1 (Dengue virus type 1 (strain Nauru/West …, UniProt P17763)); test: ELISA
[2] = biological target: soluble E80 protein of DENV-3 (Dengue virus type 3; strain of E80 not …, UniProt P27915)

B1: 513 engineered and humanized antibody (antibody, V domains shown)
VH: QVQLVQSGAEVKKPGASVKVSCKAGFNIKDVYMSWVRQAPEQGLEWMGRIDPENGDTKYDPKLQGRVTMTADTSTNTAYMELRSLRSDDTAVYYCARGWEGFAYWGQGTLVTVSS
VL: DIVMTQSPASLAVSLGQRATISCRASENVDKYGNSFMHWYQQKPGQPPKLLIYRASELQWGVPDRFSGSGSGTDFTLTISSLQAEDVAVYYCQRSNEVPWTFGQGTKLEIK
binding result [1]: binds
binding result [2]: binds
